Compound potency records, mixed from different reports. Data source: NIAID ChemDB in PubChem.

Shared fields: growth or infection tests; agent: HIV-1

Rows are shuffled and stem from different studies. ECn: concentration that inhibits the pathogen or its effect by n%. An empty or dashed field is not shown.

smiles,read-out,strain or isolate,changes,read by,cells,setting,value
CC(C)=CCOc1cc(NC(=S)c2ccsc2C)ccc1Cl,EC50,IIIB,,syncytia,CEM,,0.0018 ± 0.0004 µM
Cc1cc(S(N)(=O)=O)ccc1NC(=O)COc1ccc(Cl)cc1C(=O)c1cc(C#N)cc(C(=O)N2CCCC2)c1,EC50,,K103N,,HeLa,,0.0855 µM
C#Cc1ccc(Nc2nccc(Oc3c(C)cc(-c4cn(CC(=O)Nc5ccc(Br)cc5)nn4)cc3C)n2)cc1,EC50,IIIB,Y181C,MTT,MT-4,,>19.78 µM
CCc1c(Sc2cc(C)cc(C)c2)n(COCCO)c(=S)[nH]c1=O,EC50,IIIB,,cytopathic effect / MTT,MT-4,,0.0075 µM
Cc1cc(S(N)(=O)=O)ccc1NC(=O)COc1ccc(Cl)cc1C(=O)c1cc(C#N)cc(C(=O)N2CCC2)c1,EC50,,Y181C,,HeLa,,0.45 µM
Fc1cccc(F)c1[C@@H]1SCc2nc3ccccc3n21,EC50,MN,,cytopathic effect / MTT,MT-4,,0.3 µg/mL
COC(=O)[C@H](C)NP(=O)(OC[C@H]1O[C@@H](n2cc(C)c(=O)[nH]c2=O)CC1N=[N+]=[N-])Oc1ccccc1,EC50,ROD,,MTT,MT-4,,0.031 µM
C#Cc1ccc(Nc2nccc(Oc3c(C)cc(-c4cn(Cc5ccc(S(N)(=O)=O)cc5)nn4)cc3C)n2)cc1,EC50,IIIB,L100I,MTT,MT-4,,0.61 µM
N#Cc1cc([C@H]2C[C@H](N=[N+]=[N-])[C@@H](CO)O2)cc(=O)[nH]1,EC50,ROD,,MTT,MT-4,,>478 µM
COc1oc([C@H]2C/C(=C/C(C)=C/c3cccc(Cl)c3)CO2)c(C)c(=O)c1C,EC90,LAI,,fluorescence,PBMC + LC5-RIC,,14.1 µM
CC(C)c1nc(CN(C)C(=O)N[C@H](C(=O)N[C@@H](Cc2ccccc2)C[C@H](O)[C@H](Cc2ccccc2)NC(=O)OCc2cncs2)C(C)C)cs1,EC50,BaL,,p24,PBMC,,0.006 µM
COc1oc([C@H]2C/C(=C/C(C)=C/c3cccc(C(F)(F)F)c3)CO2)c(C)c(=O)c1C,EC50,LAI,,fluorescence,PBMC + LC5-RIC,,0.0401 µM
CCOC(=O)[C@H](C)N[P@](=O)(CO[C@@H]1C=C(F)[C@H](n2cnc3c(N)ncnc32)O1)Oc1ccccc1,EC50,LJM (subtype B),,p24 / ELISA / antigen,PBMCs,4 d,0.027 µM
CCCc1cc(=O)oc2c3c(c4c(c12)OC(C)(C)C=C4)O[C@@H](C)[C@H](C)[C@@H]3O,EC50,NL4-3(RT-4XAZT),RT-D67N K70R T215Y K219Q,XTT,CEM + CEM-SS,,0.2 µM
O=c1[nH]cnc2c1ncn2[C@H]1CC[C@@H](CO)O1,EC50,IIIB,RT-V106A,syncytia,CEM,,13.5 ± 9.2 µM
C#Cc1ccc(Nc2nccc(Oc3c(C)cc(-c4cn(Cc5cccc(C(=O)OC)c5)nn4)cc3C)n2)cc1,EC50,IIIB,K103N,MTT,MT-4,,0.36 µM
COC(=O)Nc1cc(C#N)cc(C(=O)c2cc(Cl)ccc2OCC(=O)Nc2ccc(S(N)(=O)=O)cc2C)c1,EC50,,K103N,,HeLa,,0.014 µM
Cc1cn([C@H]2C[C@H](N=[N+]=[N-])[C@@H](CO)O2)c(=O)[nH]c1=O,EC50,IIIB,,ATP,MT-2,,0.14 µM
CNC(=O)c1cc(C#N)cc(C(=O)c2cc(Cl)ccc2OCC(=O)Nc2ccc(S(N)(=O)=O)cc2C)c1,EC50,,WTRVA,,HeLa,,0.445 µM
CC(C)=CCOc1cc(NC(=S)c2ccoc2C)ccc1Cl,EC50,IIIB,RT-Y181C,cytopathic effect,CEM,,0.015 µg/mL
Fc1ccc(Cl)c(C2OCc3nc4ccccc4n32)c1,EC50,IIIB,,cytopathic effect,MT-4,,7.9 µM
Cc1ccnc2c1NC(=O)c1cccnc1N2C1CC1,EC50,E BPTU-resistant (RT Y181C),RT-Y181C,XTT,CEM + CEM-SS,,1.9 µM
COc1oc([C@H]2C/C(=C/C(C)=C/c3ccc(Oc4ccccc4)cc3)CO2)c(C)c(=O)c1C,EC50,LAI,,fluorescence,PBMC + LC5-RIC,,0.0417 µM
CC(C)OC(=O)[C@H](C)NP(=O)(CO[C@@H]1C=C(F)[C@H](n2cnc3c(N)ncnc32)O1)Oc1ccccc1,EC50,IIIB,,ATP,MT-2,,0.81 µM
COC(=O)[C@H](C)NP(=O)(OC[C@@H]1C=C[C@H](n2cnc3c(N)ncnc32)O1)Oc1ccccc1,EC50,BaL,,p24,MM + M/M,,0.01 µM
CCc1c(Sc2ccccn2)n(COCc2ccccc2)c(=O)[nH]c1=O,EC50,Calanolide A-resistant (RT T139I),RT-T139I,XTT,CEM + CEM-SS,,0.01 µM
CCOCn1c(Sc2cc(C)cc(C)c2)c(CC)c(=O)[nH]c1=S,EC50,IIIB,,cytopathic effect / MTT / p24,PBL,,0.0022 µM
c1ccc(C2OCc3nc4ccccc4n32)cc1,EC50,IIIB,,cytopathic effect,MT-4,,>30 µM
CCc1c(Sc2cc(C)cc(C)c2)n(COCCO)c(=O)[nH]c1=O,EC50,IIIB,,cytopathic effect / MTT,MT-4,,0.016 µM
CCCCC#CCSc1ccccc1OC(C)=O,EC50,184V lamivudine-resistant (RT M184V),RT-M184V,,MT-2,,5 µM
Cc1cc(S(N)(=O)=O)ccc1NC(=O)COc1ccc(Cl)cc1C(=O)c1cc(C#N)cc(OC(F)(F)F)c1,EC50,,V106A,,HeLa,,0.0019 µM
C#Cc1ccc(Nc2nccc(Oc3c(C)cc(-c4cn(CCc5ccccc5)nn4)cc3C)n2)cc1,EC50,RES056,,MTT,MT-4,,>5.66 µM
COc1ccc(/C=C(C)/C=C2\CO[C@@H](c3oc(OC)c(C)c(=O)c3C)C2)cc1OC,EC50,LAI,,fluorescence,PBMC + LC5-RIC,,0.0487 µM
Nc1ncnc2c1ncn2[C@H]1CC[C@@H](CO)O1,EC50,IIIB,,syncytia,CEM,,4 µM
C#Cc1ccc(Nc2nccc(Oc3c(C)cc(-c4cn(CC(=O)OC)nn4)cc3C)n2)cc1,EC50,IIIB,,MTT,MT-4,,2.32 µM
Cc1cn([C@H]2C[C@H](N=[N+]=[N-])[C@@H](CO)O2)c(=O)[nH]c1=O,EC50,Calanolide A-resistant (RT T139I),RT-T139I,XTT,CEM + CEM-SS,,0.01 µM
COC(=O)c1ccc(/C=C(C)/C=C2\CO[C@@H](c3oc(OC)c(C)c(=O)c3C)C2)cc1,EC50,LAI,,fluorescence,PBMC + LC5-RIC,,4.08 µM
Nc1nc(N)c2ncn([C@@H]3O[C@H](OCP(=O)(O)O)C=C3F)c2n1,EC50,IIIB,,ATP,MT-2,,>300 µM
Cc1cc(=O)c2ccc(N=C=S)cc2o1,EC50,IIIB,,p24 / ELISA,PBMC,,0.222 µM
C#Cc1ccc(Nc2nccc(Oc3c(C)cc(-c4cn(Cc5ccc(C(N)=O)cc5)nn4)cc3C)n2)cc1,EC50,IIIB,Y188L,MTT,MT-4,,1.33 µM
Cc1cc(S(N)(=O)=O)ccc1NC(=O)COc1ccc(Cl)cc1C(=O)c1cc(Cl)cc(C#N)c1,EC50,,V106A,,HeLa,,0.0023 µM
CCCc1cc(=O)oc2c3c(c4c(c12)OC(C)(C)C=C4)O[C@H](C)[C@@H](C)[C@@H]3O,EC50,IIIB,,XTT,CEM + CEM-SS,,0.1 µM
Cc1occc1C(=S)Nc1ccc(Cl)c(/C=N/OC(C)(C)C)c1,EC50,IIIB,,cytopathic effect,PBL,,0.021 µg/mL
Cc1ccnc2c1NC(=O)c1cccnc1N2C1CC1,EC50,IIIB,Y181C,MTT,MT-4,,>15.02 µM
CCOCn1c(Cc2cc(C)cc(C)c2)c(CC)c(=O)[nH]c1=O,EC50,IIIB,,cytopathic effect / MTT / p24,PBL,,0.00045 µM
COc1oc([C@H]2C/C(=C/C(C)=C/c3ccc(Cl)cc3Cl)CO2)c(C)c(=O)c1C,EC90,LAI,,fluorescence,PBMC + LC5-RIC,,1.818 µM
CON(C)C(=O)c1cc(C#N)cc(C(=O)c2cc(Cl)ccc2OCC(=O)Nc2ccc(S(N)(=O)=O)cc2C)c1,EC50,,V106A,,HeLa,,0.87 µM
C#Cc1ccc(Nc2nccc(Oc3c(C)cc(-c4cn(CCC(=O)OC)nn4)cc3C)n2)cc1,EC50,IIIB,F227L and V106A,MTT,MT-4,,>23.76 µM